Assay results: publication PMC5339220
For at least one entry, the source does not settle the construct or the ends of the probe.

Target: CcpA (UniProt A0A0H2ZQ65)
Assay: EMSA
Conditions: EMSA: 1x LightShift binding buffer, 1 ug poly(dI-dC), 2.5% glycerol, 0.05% NP-40, 5 mM Mn2+, 5 mM Zn2+, 2-4 ug protein, 1 ng probe, 20 ul, 37 C, 30 min; pH not stated; recombinant protein; label: 5' biotin (Pcps F strand); probe letters rebuilt from the primers and the genome

“TACACATCTGCTTCTAAAATATTGTTAGAAAACGATTTGACTGTCCTGATCAATTTGTCATGTTCTTATTTCATTTTACTATATTTTTGGTTCGCGGGAAGTCTACTAAGATACTTAAAGATGCAGATAGTGAAAAAAGGTGTAGACATTACCGTAAAAAAGTGATATAATCGTAAGATGTTCAATGTATAGGTGTTAATCATGAGTAGACGTTTTAA (double strand) [C2 probe (cps promoter)]”: binds.
